Experimental findings from PubChem BioAssay AID651828 are described below.

The list shows a part of the results, in another mix than the full data. Activity calls are given as the source filed them. Rule as the data show it: active = % bound below about 75%; inactive = the rest.

The experiment has as its target Nucleoprotein (Rift valley fever virus (strain ZH-548 M12)) (UniProt P21700). Nature of the experiment: inhibitors of RVFV nucleoprotein–RNA binding, primary screen, biochemical, fluorescence polarization (AID 651828). To be noted: RVFV N-RNA binding, active compounds read low, concentration not given here. On the technique in general: In fluorescence polarisation assays a small probe gives low polarisation when free and higher when bound to something large.
On to `CN1CCC(Nc2ccc(F)cc2)CC1`, for which the % bound was inactive: 98.2%.
Regarding `CCCN1CCC(Nc2cc(OC)cc(OC)c2)CC1`, the % bound is inactive: 101%.
For the molecule `CCN1CCC(Nc2ccc(F)cc2)CC1`, the % bound was inactive: 93.4%.
Under `CCCN1CCC(Nc2ccc(OC)c(OC)c2)CC1` stands inactive: 99.5%; under `CCOC(=O)N1CCC(Nc2cccc(C)c2)CC1`, inactive: 93%; under `CCOC(=O)N1CCC(Nc2ccc(F)cc2)CC1`, inactive: 91.5%.
The figure for `c1ccc(CN2CCC(Nc3ccc4c(c3)OCO4)CC2)cc1` is inactive: 99.8%.
